Compound potency records, mixed from different reports. Data source: NIAID ChemDB in PubChem.

Common to all: growth or infection tests; species: Candida albicans

MIC50, MIC90 and the like: level of inhibition, or share of isolates inhibited. Rows are shuffled and stem from different studies. An empty or dashed field is not shown.

compound,endpoint,conditions,strain or isolate,result
N/C(=N\NC(CC(=O)c1cccc(Cl)c1)c1cccnc1)c1ccccn1,MIC,-,C873,80 µg/mL
COc1ccc(C(Cc2ccccc2Cl)n2ccnc2)cc1,Geometric mean MIC,-,34 strains,214 µg/mL
CCCCCCCOC(=O)C(N)Cc1ccc(OC)cc1,MIC,-,-,500 µg/mL
N/C(=N\NC(CC(=O)c1ccc(-c2ccccc2)cc1)c1ccccn1)c1ccccn1,MIC,-,C873,>160 µg/mL
CCCSc1nc(Cl)c(C#N)c(-c2cccc(F)c2)n1,MIC,-,-,>100 µg/mL
CCOC(=O)c1sc(SC)cc1-c1ccccc1,MIC,-,SKF,>100 µg/mL
CCCCCCOc1ccc(CC(N)C(=O)OCCCC)cc1,MIC,-,-,250 µg/mL
COc1ccc(C(Cc2cccc(Cl)c2)n2ccnc2)cc1,MIC90,-,34 strains,128 µg/mL
Cc1ccc(NC(=O)CCN2C(=O)S/C(=C\c3ccc(C)cc3C)C2=O)cc1,MIC,-,-,50 µg/mL
COc1ccc([C@@H](Cc2ccc(Cl)cc2Cl)n2ccnc2)cc1,MIC90,-,34 strains,16 µg/mL
Cc1c(O)cccc1C(=O)N[C@@H](CSc1ccccc1)[C@H](O)CN1C[C@H]2CCCC[C@H]2C[C@H]1C(=O)NC(C)(C)C,MIC,-,I67A,64 µg/mL
CCCSc1nc(Cl)c(C#N)c(-c2ccco2)n1,MIC,-,-,>100 µg/mL
COc1ccc(C(Cc2ccccc2-n2cccc2)n2ccnc2)cc1,Geometric mean MIC,-,34 strains,26.96 µg/mL
O=C(CCN1C(=O)S/C(=C\c2ccccc2Br)C1=O)Nc1ccccc1O,MIC,-,-,12.5 µg/mL
CCSc1nc(Cl)c(C#N)c(-c2ccco2)n1,MIC,-,-,>100 µg/mL
CSc1cc(-c2ccc(C)cc2)c(C(=O)O)s1,MIC,-,SKF,>100 µg/mL
CCOC(=O)Cc1csc(NC(=O)CSc2nnc(C(C)Oc3ccc(C)cc3)n2-c2ccccc2)n1,MIC,-,Clinical isolates,>16 µg/mL
CCOC(=O)c1sc(SC)cc1-c1ccc(Br)cc1,MIC,-,SKF,>100 µg/mL
COc1ccc(C(Cc2ccccc2N)n2ccnc2)cc1,MIC90,-,34 strains,128 µg/mL
CC(Oc1ccccc1)c1n[nH]c(=S)n1-c1ccccc1,MIC,-,Clinical isolates,16 µg/mL
CCCSc1ccc2nc(NC(=O)OC)[nH]c2c1,MIC,24 h,92-1729,5 µg/mL
CSc1cc(-c2ccc(-c3cccnc3)cc2)c(C(=O)O)s1,MIC,-,SKF,>100 µg/mL
Cc1ccc2c(c1)c1nnc(N3CC[N+](C)([O-])CC3)nc1n2C,MIC,-,2005E,>125 µg/mL
Cc1ccc(C)c(/C=C2\SC(=O)N(CCC(=O)Nc3ccccc3O)C2=O)c1,MIC,-,-,12.5 µg/mL
COc1ccc(C(Cc2cccc(F)c2)n2ccnc2)cc1,MIC90,-,34 strains,256 µg/mL
CC(Oc1ccccc1)c1nnc(SCC(=O)Nc2nccs2)n1C1CCCCC1,MIC,-,Clinical isolates,>16 µg/mL
CCCCCCCCOC(=O)C(N)Cc1ccc(OC)cc1,MIC,-,-,250 µg/mL
Cc1ccc(C(=O)CC(N/N=C(\N)c2ccccn2)c2ccccn2)cc1,MIC,-,C873,80 µg/mL
C[C@H]1[C@H](O)[C@@H](C)/C=C/C=C/C=C/C=C/C=C/C=C/C=C/[C@H](O[C@@H]2O[C@H](C)[C@@H](O)[C@H](N)[C@@H]2O)C[C@@H]2O[C@](O)(C[C@@H](O)C[C@@H](O)CC[C@H](O)[C@@H](O)C[C@@H](O)CC(=O)O[C@H]1C)C[C@H](O)[C@H]2C(=O)O,MIC,-,M27587,<0.06 µg/mL
CCOC(=O)c1sc(SC)cc1-c1ccc(-c2cccnc2)cc1,MIC,-,SKF,50 µg/mL
C[C@H]1[C@H](O)[C@@H](C)/C=C/C=C/C=C/C=C/C=C/C=C/C=C/[C@H](O[C@@H]2O[C@H](C)[C@@H](O)[C@H](N)[C@@H]2O)C[C@@H]2O[C@](O)(C[C@@H](O)C[C@@H](O)CC[C@H](O)[C@@H](O)C[C@@H](O)CC(=O)O[C@H]1C)C[C@H](O)[C@H]2C(=O)O,MIC,-,2381E,0.008 µg/mL
CCC(C)CC(C)CCCCCCCCC(=O)N[C@H]1C[C@@H](O)[C@H](NCCN)NC(=O)[C@@H]2[C@@H](O)CCN2C(=O)[C@H]([C@H](O)CCN)NC(=O)[C@H]([C@H](O)[C@@H](O)c2ccc(O)cc2)NC(=O)[C@@H]2C[C@@H](O)CN2C(=O)[C@H]([C@@H](C)O)NC1=O,MIC50,-,40 isolates,0.5 µg/mL
CCOC(=O)c1sc(SC)cc1-c1ccc(Cl)cc1,MIC,-,SKF,>100 µg/mL
COc1ccc(C(Cc2cccc(-n3cccc3)c2)n2ccnc2)cc1,MIC90,-,34 strains,256 µg/mL
Cc1cccc(C(=O)CC(N/N=C(\N)c2ccccn2)c2ccccn2)c1,MIC,-,C873,80 µg/mL
CSc1cc(-c2ccc(Cl)cc2)c(C(=O)O)s1,MIC,-,SKF,>100 µg/mL
Cc1ccc(OC(C)c2n[nH]c(=S)n2-c2ccccc2)cc1,MIC,-,NRRL Y-27077,1 µg/mL
N/C(=N\NC(CC(=O)c1ccccc1)c1ccccn1)c1ccccn1,MIC,-,C873,20 µg/mL
Cc1ccc(NC(=O)CCN2C(=O)S/C(=C\c3ccccc3Cl)C2=O)cc1,MIC,-,-,>100 µg/mL
N/C(=N\NC(CC(=O)c1ccc(Cl)c(Cl)c1)c1ccccn1)c1ccccn1,MIC,-,C873,20 µg/mL
CCOC(=O)c1sc2cc(-c3cc(F)c(Cl)cc3Cl)oc(=O)c2c1N,MIC,-,SKF,>100 µg/mL
C/C=C/OC(=O)C(N)Cc1ccccc1,MIC,-,-,500 µg/mL
Cc1cc(C)cc(/C=C2\SC(=O)N(CCC(=O)Nc3ccccc3O)C2=O)c1,MIC,-,-,25 µg/mL
C[C@H]1[C@H](O)[C@@H](C)/C=C/C=C/C=C/C=C/C=C/C=C/C=C/[C@H](O[C@@H]2O[C@H](C)[C@@H](O)[C@H](N)[C@@H]2O)C[C@@H]2O[C@](O)(C[C@@H](O)C[C@@H](O)CC[C@H](O)[C@@H](O)C[C@@H](O)CC(=O)O[C@H]1C)C[C@H](O)[C@H]2C(=O)O,MIC,-,AD,0.25 µg/mL
Cc1ccc(OC(C)c2n[nH]c(=S)n2C2CCCCC2)cc1,MIC,-,Clinical isolates,>16 µg/mL
N/C(=N\NC(CC(=O)c1cccc(Cl)c1)c1ccccn1)c1ccccn1,MIC,-,C873,80 µg/mL
O=C(CCN1C(=O)S/C(=C\c2ccc(O)c(O)c2O)C1=O)Nc1ccccc1S,MIC,-,-,12.5 µg/mL

Repeating the final 4 entries:

{"compound": "C[C@H]1[C@H](O)[C@@H](C)/C=C/C=C/C=C/C=C/C=C/C=C/C=C/[C@H](O[C@@H]2O[C@H](C)[C@@H](O)[C@H](N)[C@@H]2O)C[C@@H]2O[C@](O)(C[C@@H](O)C[C@@H](O)CC[C@H](O)[C@@H](O)C[C@@H](O)CC(=O)O[C@H]1C)C[C@H](O)[C@H]2C(=O)O", "endpoint": "MIC", "strain or isolate": "AD", "result": "0.25 µg/mL"}
{"compound": "Cc1ccc(OC(C)c2n[nH]c(=S)n2C2CCCCC2)cc1", "endpoint": "MIC", "strain or isolate": "Clinical isolates", "result": ">16 µg/mL"}
{"compound": "N/C(=N\\NC(CC(=O)c1cccc(Cl)c1)c1ccccn1)c1ccccn1", "endpoint": "MIC", "strain or isolate": "C873", "result": "80 µg/mL"}
{"compound": "O=C(CCN1C(=O)S/C(=C\\c2ccc(O)c(O)c2O)C1=O)Nc1ccccc1S", "endpoint": "MIC", "result": "12.5 µg/mL"}